# Experimental data reported in patent US11192863B2, “Antiviral compounds and methods” (Biotron Limited, priority 2003, dated 2021).
# Tested on: HIV
# Format: cell-based
# Details: Table 19a; rank by overall average p24 antigen at all drug concentrations, 1 = most effective
row,Compound,p24 rank order
1,N=C(N)NC(=O)Cc1ccc2ccccc2c1 [2-(2-napthyl)acetoylguanidine],10
2,N=C(N)NC(=O)/C=C/c1cccc(C(F)(F)F)c1 [3-(trifluoromethyl)cinnamoylguanidine],2
3,Cc1cccc(/C=C/C(=O)NC(=N)N)c1 [3-methylcinnamoylguanidine],3
4,N=C(N)NC(=O)c1ccc(-c2ccccc2)cc1 [4-phenylbenzoylguanidine],11
5,"NC(N)=NC(=O)c1nc(Cl)c(N2CCCCCC2)nc1N [5-(N,N-hexamethylene)amiloride]",6
6,COc1ccc2cc(C(=O)NC(=N)N)ccc2c1 [6-methoxy-2-naphthoylguanidine],5
7,N=C(N)NC(=O)/C=C/c1cccc(Br)c1 [(3-Bromocinnamoyl)guanidine],1
8,"NC(N)=NC(=O)/C=C/C=C/c1ccccc1 [(5-Phenyl-penta-2,4-dienoyl)guanidine]",9
9,N=C(N)NC(=O)C1CC1c1ccccc1 (stereo not drawn) [(trans-2-Phenylcyclopropanecarbonyl)guanidine],8
10,N=C(NC(=O)CCc1ccccc1)Nc1ccccc1 [N-(3-phenylpropanoyl)-N′-phenylguanidine],12
11,NC(N)=NC(=O)/C=C/c1ccccc1 [cinnamoylguanidine],4
12,N=C(N)NC(=O)/C=C/c1cccc2ccccc12 [trans-3-(1-napthyl)acryloylguanidine],7

# The amount applied is not stated for every result.
